Values from PubChem BioAssay AID1259414 (Drosophila RNAi Screening Center, 2018).
In all, the deposit lists about 24,000 reagents; shown is an unselected part of those that have a named target and a result. In the full data, about 1,210 (5%) are marked active. 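Inactive calls also include excluded dsRNAs with several or no targets, genes unexpressed in JW18, and well A1, regardless of score.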 A number with no mark means an inactive call. Names joined by + are all predicted targets of the reagent. Reagent sequences are not shown.

Assay: 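Fly genes that alter Wolbachia amount inside host cells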 (primary screen)
System: Drosophila JW18 cells infected with Wolbachia
Reagent: long dsRNA against Drosophila genes, 0.25 µg dsRNA per well of a 384-well plate
Duration: 5 days
Conditions: cells persistently infected with Wolbachia before knock-down; no added drug
Detection: 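Imaged fluorescence in situ signal for Wolbachia 23S rRNA per DAPI-counted host cell, given as a robust z-score within each plate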
Reading the numbers: Wolbachia per cell robust z: higher = more Wolbachia per host cell than the plate typical
Rule for the call: 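Hit when robust z is 1.5 or more, or -1.5 or less, in at least two of three replicates; excludes dsRNAs with several or no targets, genes not expressed in JW18 and well A1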

no.	target	amplicon	Wolbachia per cell robust z, rep 1	Wolbachia per cell robust z, rep 2	Wolbachia per cell robust z, rep 3
1	Cyp28a5 (GeneID 34817)	DRSC03297	0.96	0.428	0.234
2	Tnpo-SR (GeneID 33465)	DRSC00546	1.07	0.00183	0.691
3	zen (GeneID 40828)	DRSC12632	1.09	-0.119	-0.000571
4	zen (GeneID 40828)	DRSC23673	0.289	-0.608	-1.37
5	MstProx + Mst84Da	DRSC12597	0.0399	0.477	1.21
6	kon (GeneID 35104)	DRSC02033	0.264	0.667	0.23
7	Or56a (GeneID 37269)	DRSC07495	-0.0748	-0.148	-1.45
8	CG7985 (GeneID 42178)	DRSC14128	-0.542	0.508	-0.692
9	CG9917 (GeneID 32596)	DRSC20218	-0.383	-7.64	-0.912
10	CG8142 (GeneID 32763)	DRSC20086	0.633	0.505	0.665
11	CG8142 (GeneID 32763)	DRSC26373	0.399	-0.0587	-0.634
12	cyr (GeneID 31733)	DRSC18017	-2.38	-1.35	0.00255
13	cyr (GeneID 31733)	DRSC18018	-0.714	-0.477	-0.356
14	CG7600 (GeneID 39267)	DRSC09681	0.561	-1.93	0.364
15	CG7600 (GeneID 39267)	DRSC25328	0.938	1.47	0.501
16	JMJD5 (GeneID 38097)	DRSC08372	-4.24	0.407	-0.221
17	JMJD5 (GeneID 38097)	DRSC25820	-1.2	-1.77	0.501
18	CG14340 (GeneID 33287)	DRSC00370	0.512	-0.839	0.2
19	CG30391 (GeneID 37423)	DRSC21572	-0.198	-1.17	-0.0458
20	bon (GeneID 44235)	DRSC16914	0.708	0.0235	0.946
21	CG12164 (GeneID 35651)	DRSC06115	-0.911	-1.98	-0.238
22	CG12164 (GeneID 35651)	DRSC21777	1.14	-1.33	0.704
23	CG12164 (GeneID 35651)	DRSC25698	-2.24	-1.23	-3.16
24	CG42705 (GeneID 10178898)	DRSC41393	-2.08	0.117	0.665
25	Kap-alpha1 (GeneID 40160)	DRSC11356	0.596	0.134	0.489
26	CG10839 (GeneID 34944)	DRSC01965	0.712	1.43	0.034
27	Ugt37A2 (GeneID 41573)	DRSC15861	1.48	1.09	1.23
28	Ugt37A2 (GeneID 41573)	DRSC29967	-6.81	-8.1	-2.47
29	CG34173 (GeneID 5740285)	DRSC38728	-0.648	-0.0424	-0.827
30	tplus3a + tplus3b	DRSC03687	-0.0506	-1.23	-1.67
31	tplus3a + tplus3b	DRSC26400	0.743	1.37	0.442
32	Ufd1 (GeneID 39254)	DRSC10607	0.967	1.48	-7.78
33	term (GeneID 47208)	DRSC21730	0.223	-0.0529	-0.146
34	ng1 + ng2	DRSC23988	-0.642	-0.118	-0.389
35	CG11626 (GeneID 42323)	DRSC14336	-4.87	-0.33	-2.17
36	Cpr65Az (GeneID 38712)	DRSC09882	0.019	0.481	0.721
37	Cpr65Az (GeneID 38712)	DRSC22057	0.681	0.652	-0.689
38	Cpr65Az (GeneID 38712)	DRSC23964	-6.46	-8.5	0.00449
39	CG5614 (GeneID 41906)	DRSC15845	-0.207	-0.781	-0.911
40	Brca2 (GeneID 37916)	DRSC04219	-1.77	0.764	1.65
41	Brca2 (GeneID 37916)	DRSC04220	-0.367	0.402	1.07
42	CG34417 (GeneID 31591)	DRSC18332	-0.356 (active)	-6.69	-1.98
43	CG34417 (GeneID 31591)	DRSC18333	0.0233	0.171	-4.68
44	CG34417 (GeneID 31591)	DRSC28478	-0.368	-3.87	-0.752
45	O-fut2 (GeneID 31098)	DRSC18608	-1.34	0.431	0.857
46	ase (GeneID 30985)	DRSC18739	0.99	1.66	1
47	CG32121 (GeneID 317867)	DRSC09265	-0.744	-0.569	-2.38
48	nan (GeneID 39571)	DRSC10551	-1.97	-1.51	-10.9
49	CG42570 (GeneID 8674011)	DRSC09391	-0.383	0.819	-0.0266
50	CG14915 (GeneID 34536)	DRSC02399	-0.512	-0.363	-0.676
51	CG14915 (GeneID 34536)	DRSC26295	-0.515	-0.237	0.397
52	ND-ASHI (GeneID 31604)	DRSC18291	1.1	0.802	0.93
53	ND-ASHI (GeneID 31604)	DRSC27165	-4.27	-0.202	-0.282
54	CG10462 (GeneID 35260)	DRSC02058	-3.94	1.39	0.557
55	CG4622 (GeneID 37919)	DRSC04479	0.287	-1.19	-0.694
56	CG1265 (GeneID 38517)	DRSC08288	0.0894	-1.78	-0.502
57	CG14926 (GeneID 34567)	DRSC02409	-1.58	0.364	0.539
58	nmd (GeneID 44021)	DRSC02856	-1.11	-0.22	-0.889
59	nmd (GeneID 44021)	DRSC27985	-8.36	0.287	1.09
60	CG11970 (GeneID 41072)	DRSC14157	-0.769	-0.446	-4.46
61	CG30385 (GeneID 246585)	DRSC06031	-0.867	1.69	-2.5
62	CG15141 (GeneID 35044)	DRSC02441	-1.8	-1.1	-1.15
63	CG15141 (GeneID 35044)	DRSC02442	0.115	0.57	-0.305
64	CG15141 (GeneID 35044)	DRSC29031	-0.612	-0.746	0.374
65	CG17931 + CG42446	DRSC28824	0.755	0.688	0.105
66	CG31191 (GeneID 42477)	DRSC15214	-0.34	0.543	-0.492
67	CG12236 (GeneID 31523)	DRSC17831	-3.75	0.74	0.488
68	CG12236 (GeneID 31523)	DRSC25773	-1.51 (active)	-1.72	-1.46

7 consecutive records from above, quoted:
no.	target	amplicon	Wolbachia per cell robust z, rep 1	Wolbachia per cell robust z, rep 2	Wolbachia per cell robust z, rep 3
61	CG30385 (GeneID 246585)	DRSC06031	-0.867	1.69	-2.5
62	CG15141 (GeneID 35044)	DRSC02441	-1.8	-1.1	-1.15
63	CG15141 (GeneID 35044)	DRSC02442	0.115	0.57	-0.305
64	CG15141 (GeneID 35044)	DRSC29031	-0.612	-0.746	0.374
65	CG17931 + CG42446	DRSC28824	0.755	0.688	0.105
66	CG31191 (GeneID 42477)	DRSC15214	-0.34	0.543	-0.492
67	CG12236 (GeneID 31523)	DRSC17831	-3.75	0.74	0.488
